# The supplement of paper PMC6992640
# ± gives the standard deviation of the averaged measurements. This is a selection; strong and weak results do not stand in their true shares.
# Tests used:
# Assay in all cases: cell viability (% of vehicle); higher = less cytotoxic
# Settings in all cases: 10 µM; 72 h
# HCI01 = system: HCI01 (cells of a triple-negative basal-like breast cancer xenograft)
# HCI03 = system: HCI03 (cells of an ER-positive luminal breast cancer xenograft)
# HCI09 = system: HCI09 (cells of a triple-negative luminal androgen receptor type breast cancer xenograft)
# HCI11 = system: HCI11 (cells of an ER-positive luminal breast cancer xenograft)
# HCI13 = system: HCI13 (cells of an ER-positive luminal breast cancer xenograft)
# HCI16 = system: HCI16 (cells of a triple-negative basal-like breast cancer xenograft)
# UCD52 = system: UCD52 (cells of a triple-negative basal-like breast cancer xenograft)
# WHIM2 = system: WHIM2 (cells of a triple-negative basal-like breast cancer xenograft)
# WHIM30 = system: WHIM30 (cells of a triple-negative basal-like breast cancer xenograft)
# 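Note: PDX cells carrying CMV promoter-driven luciferase, viability read as total photon flux per second by IVIS imaging following D-luciferin, vehicle control 0.1% DMSO.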
smiles,measurement,setting,value
O=P([O-])([O-])F.[Na+].[Na+] [Sodium Monofluorophosphate],cell viability,HCI01,111 ± 31
same,cell viability,HCI03,106
same,cell viability,HCI09,102 ± 3.8
same,cell viability,HCI11,93
same,cell viability,HCI13,52.4 ± 3.3
same,cell viability,HCI16,103
same,cell viability,UCD52,85 ± 17
same,cell viability,WHIM2,120 ± 18
same,cell viability,WHIM30,119 ± 13
